{
  "source": "patent US20040024068A1",
  "about": "“Antimicrobial compounds” (priority 1998, published 2004)",
  "tested_on": "Mycobacterium smegmatis mc^2155 and InhA mutants",
  "test": "MIC on agar plates by 2-fold serial dilutions, M. smegmatis strains",
  "type": "cell-based",
  "conditions": "each of mutants MT1, MT9 and MT17",
  "data": [
    {"smiles": "Oc1cc(Cl)ccc1Oc1ccc(Cl)cc1Cl", "note": "[triclosan, 2,4,4′-trichlor-2′-hydroxydiphenyl ether]", "values": [
      {"measurement": "times more resistant to triclosan than the parental strain", "value": "4-6"}
    ]}
  ]
}
